Test: xn = mol fraction of the nth substance listed
Conditions: Liquid, Other PVT measurement

COC[N+]1(C)CCCC1.O=S(=O)(F)[N-]S(=O)(=O)F + O=C=O
Conditions | molar volume [m3/mol]
298.15 K, 592.4 kPa, x2 = 0.13 | 0.000197
298.15 K, 1052.3 kPa, x2 = 0.213 | 0.0001817
298.15 K, 1496.9 kPa, x2 = 0.282 | 0.0001691
298.15 K, 1824.7 kPa, x2 = 0.326 | 0.000161
298.15 K, 2530.6 kPa, x2 = 0.406 | 0.0001462
298.15 K, 3022.4 kPa, x2 = 0.454 | 0.0001375
298.15 K, 3587.3 kPa, x2 = 0.501 | 0.0001288
298.15 K, 4115.6 kPa, x2 = 0.538 | 0.0001219
298.15 K, 4600.7 kPa, x2 = 0.569 | 0.0001164
313.15 K, 696.2 kPa, x2 = 0.116 | 0.0002015
313.15 K, 1173.9 kPa, x2 = 0.183 | 0.0001891
313.15 K, 1500.7 kPa, x2 = 0.223 | 0.0001816
313.15 K, 1939.8 kPa, x2 = 0.273 | 0.0001725
313.15 K, 2566.9 kPa, x2 = 0.334 | 0.000161
313.15 K, 3096.9 kPa, x2 = 0.378 | 0.0001527
313.15 K, 3529 kPa, x2 = 0.411 | 0.0001466
313.15 K, 3965.6 kPa, x2 = 0.44 | 0.0001411
313.15 K, 4630.9 kPa, x2 = 0.48 | 0.0001337
333.15 K, 674.6 kPa, x2 = 0.084 | 0.0002096
333.15 K, 1089.9 kPa, x2 = 0.128 | 0.0002011
333.15 K, 1522.8 kPa, x2 = 0.171 | 0.0001931
333.15 K, 1737.7 kPa, x2 = 0.19 | 0.0001894
333.15 K, 2395.5 kPa, x2 = 0.244 | 0.0001792
333.15 K, 2714.6 kPa, x2 = 0.269 | 0.0001746
333.15 K, 3315.3 kPa, x2 = 0.309 | 0.000167
333.15 K, 4107 kPa, x2 = 0.358 | 0.0001579
333.15 K, 4917.1 kPa, x2 = 0.4 | 0.0001502
